From patent US10646469B2, “Substituted indole derivatives as dengue viral replication inhibitors” (Janssen Pharmaceuticals, Inc., priority 2016, dated 2020)

Tested on: DENV-2 16681 strain
Experiment: DENV-2 antiviral assay (eGFP-labeled virus in Vero cells)
Type: cell-based, Dengue virus
Conditions: SI=CC50/EC50, DENV-2 antiviral assay
Description: The antiviral activity of all the compounds of the invention was tested against the DENV-2 16681 strain which was labeled with enhanced green fluorescent protein (eGPF). The culture medium consists of minimal essential medium supplemented with 2% of heat-inactivated fetal calf serum, 0.04% gentamycin (50 mg/mL) and 2 mM of L-glutamine. Vero cells, obtained from ECACC, were suspended in culture medium and 25 μL was added to 384-well plates (2500 cells/well), which already contain the antiviral compounds. Typically, these plates contain a 5-fold serial dilution of 9 dilution steps of the test compound at 200 times the final concentration in 100% DMSO (200 nL). […] Finally, each plate contains wells which are assigned as virus controls (containing cells and virus in the absence of compound), cell controls (containing cells in the absence of virus and compound) and medium controls (containing medium in the absence of cells, virus and compounds). To the wells assigned as medium control, 25 μL of culture medium was added instead of Vero cells. Once the cells were added to the plates, the plates were incubated for 30 minutes at room temperature to allow the cells to distribute evenly within the wells. Next, the plates were incubated in a fully humidified incubator (37° C., 5% CO2) until the next day. Then, DENV-2 strain 16681, labeled with eGFP, was added at a multiplicity of infection (MOI) of 0.5. Therefore, 15 μL of virus suspension was added to all the wells containing test compound and to the wells assigned as virus control. In parallel, 15 μL of culture medium was added to the medium and cell controls. Next, the plates were incubated for 3 days in a fully humidified incubator (37° C., 5% CO2). At the day of the read out, the eGFP fluorescence was measured using an automated fluorescence microscope at 488 nm (blue laser). Using an in-house LIMS system, inhibition dose response curves for each compound were calculated and the half maximal effective concentration (EC50) was determined. Therefore, the percent inhibition (I) for every test concentration is calculated using the following formula: I=100*([…])/(SVC−SCC); ST, SCC and SVC are the amount of eGFP signal in the test compound, cell control and virus control wells, respectively. The EC50 represents the concentration of a compound at which the virus replication is inhibited with 50%, as measured by a 50% reduction of the eGFP fluorescent intensity compared to the virus control. The EC50 is calculated using linear interpolation (Table 1).

Compound	SI
COc1cc(NC(C(=O)c2c[nH]c3cc(F)c(C(F)(F)F)cc23)c2ccc(F)cc2OC)cc(OCCO)c1 (single isomer, unassigned) [Compound 3B, 2-(4-fluoro-2-methoxyphenyl)-1-(6-fluoro-5-(trifluoromethyl)-1H-indol-3-yl)-2-((3-(2-hydroxyethoxy)-5-methoxyphenyl)amino)ethanone]	511
COc1cc(NC(C(=O)c2c[nH]c3cc(OC)c(OC(F)(F)F)cc23)c2ccc(Cl)cc2OC)cc(OCCO)c1 (single isomer, unassigned) [Compound 14B, 2-(4-chloro-2-methoxyphenyl)-2-((3-(2-hydroxyethoxy)-5-methoxyphenyl)amino)-1-(6-methoxy-5-(trifluoromethoxy)-1H-indol-3-yl)ethanone]	754
COc1cc(NC(C(=O)c2c[nH]c3ccc(C(F)(F)F)cc23)c2ccc(Cl)cc2OC)cc(OCCO)c1 (single isomer, unassigned) [Compound 9A, 2-(4-chloro-2-methoxyphenyl)-2-((3-(2-hydroxyethoxy)-5-methoxyphenyl)amino)-1-(5-(trifluoromethyl)-1H-indol-3-yl)ethanone]	>225
COc1cc(NC(C(=O)c2c[nH]c3cc(OC)c(C(F)(F)F)cc23)c2ccc(F)cc2OC)cc(OCCO)c1 (racemic) [Compound 2, 2-(4-fluoro-2-methoxyphenyl)-2-((3-(2-hydroxyethoxy)-5-methoxyphenyl)amino)-1-(6-methoxy-5-(trifluoromethyl)-1H-indol-3-yl)ethanone]	6770
COc1cc(NC(C(=O)c2c[nH]c3cc(F)c(C(F)(F)F)cc23)c2ccc(F)cc2OC)cc(OCCO)c1 (racemic) [Compound 3, 2-(4-fluoro-2-methoxyphenyl)-1-(6-fluoro-5-(trifluoromethyl)-1H-indol-3-yl)-2-((3-(2-hydroxyethoxy)-5-methoxyphenyl)amino)ethanone]	3220
COc1cc(NC(C(=O)c2c[nH]c3cc(OC)c(C(F)(F)F)cc23)c2ccc(F)cc2OC)cc(OCCO)c1 (single isomer, unassigned) [Compound 2B, 2-(4-fluoro-2-methoxyphenyl)-2-((3-(2-hydroxyethoxy)-5-methoxyphenyl)amino)-1-(6-methoxy-5-(trifluoromethyl)-1H-indol-3-yl)ethanone]	287
COc1cc(NC(C(=O)c2c[nH]c3cc(F)c(OC(F)(F)F)cc23)c2ccc(Cl)cc2OC)cc(OCCO)c1 (single isomer, unassigned) [Compound 15A, 2-(4-chloro-2-methoxyphenyl)-1-(6-fluoro-5-(trifluoromethoxy)-1H-indol-3-yl)-2-((3-(2-hydroxyethoxy)-5-methoxyphenyl)amino)ethanone]	386
COc1cc(NC(C(=O)c2c[nH]c3c(C)cc(C(F)(F)F)cc23)c2ccc(Cl)cc2OC)cc(OCCO)c1 (single isomer, unassigned) [Compound 12B, 2-(4-chloro-2-methoxyphenyl)-2-((3-(2-hydroxyethoxy)-5-methoxyphenyl)amino)-1-(7-methyl-5-(trifluoromethyl)-1H-indol-3-yl)ethanone]	294
COc1cc(NC(C(=O)c2c[nH]c3cc(OC)c(OC(F)(F)F)cc23)c2ccc(Cl)cc2OC)cc(OCCO)c1 (racemic) [Compound 14, 2-(4-chloro-2-methoxyphenyl)-2-((3-(2-hydroxyethoxy)-5-methoxyphenyl)amino)-1-(6-methoxy-5-(trifluoromethoxy)-1H-indol-3-yl)ethanone]	>8340
COc1cc(NC(C(=O)c2c[nH]c3c(C)cc(C(F)(F)F)cc23)c2ccc(F)cc2OC)cc(OCCO)c1 (racemic) [Compound 4, 2-(4-fluoro-2-methoxyphenyl)-2-((3-(2-hydroxyethoxy)-5-methoxyphenyl)amino)-1-(7-methyl-5-(trifluoromethyl)-1H-indol-3-yl)ethanone]	13100
COc1cc(NC(C(=O)c2c[nH]c3c(C)cc(C(F)(F)F)cc23)c2ccc(F)cc2OC)cc(OCCO)c1 (single isomer, unassigned) [Compound 4A, 2-(4-fluoro-2-methoxyphenyl)-2-((3-(2-hydroxyethoxy)-5-methoxyphenyl)amino)-1-(7-methyl-5-(trifluoromethyl)-1H-indol-3-yl)ethanone]	172
COc1cc(NC(C(=O)c2c[nH]c3c(C)cc(OC(F)(F)F)cc23)c2ccc(F)cc2OC)cc(OCCO)c1 (racemic) [Compound 8, 2-(4-fluoro-2-methoxyphenyl)-2-((3-(2-hydroxyethoxy)-5-methoxyphenyl)amino)-1-(7-methyl-5-(trifluoromethoxy)-1H-indol-3-yl)ethanone]	11800
COc1cc(NC(C(=O)c2c[nH]c3cc(OC)c(OC(F)(F)F)cc23)c2ccc(F)cc2OC)cc(OCCO)c1 (single isomer, unassigned) [Compound 6B, 2-(4-fluoro-2-methoxyphenyl)-2-((3-(2-hydroxyethoxy)-5-methoxyphenyl)amino)-1-(6-methoxy-5-(trifluoromethoxy)-1H-indol-3-yl)ethanone]	124
COc1cc(NC(C(=O)c2c[nH]c3ccc(OC(F)(F)F)cc23)c2ccc(F)cc2OC)cc(OCCO)c1 (single isomer, unassigned) [Compound 5A, 2-(4-fluoro-2-methoxyphenyl)-2-((3-(2-hydroxyethoxy)-5-methoxyphenyl)amino)-1-(5-(trifluoromethoxy)-1H-indol-3-yl)ethanone]	181
COc1cc(NC(C(=O)c2c[nH]c3cc(F)c(OC(F)(F)F)cc23)c2ccc(F)cc2OC)cc(OCCO)c1 (single isomer, unassigned) [Compound 7A, 2-(4-fluoro-2-methoxyphenyl)-1-(6-fluoro-5-(trifluoromethoxy)-1H-indol-3-yl)-2-((3-(2-hydroxyethoxy)-5-methoxyphenyl)amino)ethanone]	270
COc1cc(NC(C(=O)c2c[nH]c3ccc(OC(F)(F)F)cc23)c2ccc(F)cc2OC)cc(OCCO)c1 (racemic) [Compound 5, 2-(4-fluoro-2-methoxyphenyl)-2-((3-(2-hydroxyethoxy)-5-methoxyphenyl)amino)-1-(5-(trifluoromethoxy)-1H-indol-3-yl)ethanone]	10300
COc1cc(NC(C(=O)c2c[nH]c3cc(OC)c(C(F)(F)F)cc23)c2ccc(Cl)cc2OC)cc(OCCO)c1 (racemic) [Compound 10, 2-(4-chloro-2-methoxyphenyl)-2-((3-(2-hydroxyethoxy)-5-methoxyphenyl)amino)-1-(6-methoxy-5-(trifluoromethyl)-1H-indol-3-yl)ethanone]	>9920
COc1cc(NC(C(=O)c2c[nH]c3c(C)cc(OC(F)(F)F)cc23)c2ccc(F)cc2OC)cc(OCCO)c1 (single isomer, unassigned) [Compound 8B, 2-(4-fluoro-2-methoxyphenyl)-2-((3-(2-hydroxyethoxy)-5-methoxyphenyl)amino)-1-(7-methyl-5-(trifluoromethoxy)-1H-indol-3-yl)ethanone]	195
COc1cc(NC(C(=O)c2c[nH]c3ccc(OC(F)(F)F)cc23)c2ccc(Cl)cc2OC)cc(OCCO)c1 (single isomer, unassigned) [Compound 13B, 2-(4-chloro-2-methoxyphenyl)-2-((3-(2-hydroxyethoxy)-5-methoxyphenyl)amino)-1-(5-(trifluoromethoxy)-1H-indol-3-yl)ethanone]	643
COc1cc(NC(C(=O)c2c[nH]c3c(C)cc(OC(F)(F)F)cc23)c2ccc(Cl)cc2OC)cc(OCCO)c1 (racemic) [Compound 16, 2-(4-chloro-2-methoxyphenyl)-2-((3-(2-hydroxyethoxy)-5-methoxyphenyl)amino)-1-(7-methyl-5-(trifluoromethoxy)-1H-indol-3-yl)ethanone]	>39200
COc1cc(NC(C(=O)c2c[nH]c3ccc(C(F)(F)F)cc23)c2ccc(F)cc2OC)cc(OCCO)c1 (single isomer, unassigned) [Compound 1A, 2-(4-fluoro-2-methoxyphenyl)-2-((3-(2-hydroxyethoxy)-5-methoxyphenyl)amino)-1-(5-(trifluoromethyl)-1H-indol-3-yl)ethanone]	106
COc1cc(NC(C(=O)c2c[nH]c3ccc(C(F)(F)F)cc23)c2ccc(F)cc2OC)cc(OCCO)c1 (racemic) [Compound 1, 2-(4-fluoro-2-methoxyphenyl)-2-((3-(2-hydroxyethoxy)-5-methoxyphenyl)amino)-1-(5-(trifluoromethyl)-1H-indol-3-yl)ethanone]	4730
COc1cc(NC(C(=O)c2c[nH]c3cc(OC)c(OC(F)(F)F)cc23)c2ccc(F)cc2OC)cc(OCCO)c1 (racemic) [Compound 6, 2-(4-fluoro-2-methoxyphenyl)-2-((3-(2-hydroxyethoxy)-5-methoxyphenyl)amino)-1-(6-methoxy-5-(trifluoromethoxy)-1H-indol-3-yl)ethanone]	5560
